Anti-infective test results gathered from many reports (values: NIAID ChemDB through PubChem).

All rows: whole-cell or culture tests; organism: HIV-1

ECn: concentration that inhibits the pathogen or its effect by n%.

compound	method	changes	cell line	setting	strain	measure	result
COc1ccc(S(=O)(=O)N(CC2CCCC2)C[C@@H](O)CN(CCc2ccccc2)C(=O)Oc2ccccc2)cc1	p24		CEM		IIIB	EC90	1 µM
CC(C)CN(C[C@@H](O)[C@H](Cc1ccccc1)NC(=O)O[C@H]1CCOC1)S(=O)(=O)c1ccc2nc(N)sc2c1	cytopathic effect / MTT	PR-L10F M46I M71V I84V	MT-4		F	EC50	0.105 µM
CC(C)C1=C2[C@H]3CC[C@@H]4[C@@]5(C)CC[C@H](OC(=O)CC(C)(C)C(=O)O)C(C)(C)[C@@H]5CC[C@@]4(C)[C@]3(C)CC[C@@]2(NC(=O)NCc2nccn2C)CC1=O	RT activity		MT-2	30% human serum	IIIB	EC50	<0.199 µM
C=C(C)[C@@H]1CC[C@]2(C(=O)NCCCCCCCC(=O)N[C@@H](CC(C)C)[C@@H](O)CC(=O)O)CC[C@]3(C)[C@H](CC[C@@H]4[C@@]5(C)CC[C@H](O)C(C)(C)[C@@H]5CC[C@]43C)[C@@H]12	β-galactosidase		HeLa P4 + HeLa		LAI	EC50	~1 µM
O=C(O)c1cn(-c2ccc(Cn3cncn3)cc2)c2cc(N3CCN(c4cccc(Cl)c4)CC3)ccc2c1=O	syncytia		PBL			EC50	0.2 µM
CC(C)C1=C2C3CCC4[C@@]5(C)CC[C@H](OC(=O)CC(C)(C)C(=O)O)C(C)(C)C5CC[C@@]4(C)[C@]3(C)CC[C@@]2(NC(=O)NCc2cccnc2)CC1=O	RT activity		MT-2	30% human serum	IIIB	EC50	<0.199 µM
COC(=O)[C@H](C)NP(=O)(OC[C@@H]1C=C[C@H](n2cc(C)c(=O)[nH]c2=O)O1)Oc1ccc(OC)cc1	RT activity		CEM + CEM TK-		IIIB	EC50	0.32 µM
CC(C)Oc1nc(N)nc2c1ncn2[C@H]1C=C[C@@H](CO)C1	cytopathic effect / XTT		MT-2		IIIB	EC50	9.41 µM
CC(C)C1=C2C3CCC4[C@@]5(C)CC[C@H](OC(=O)CC(C)(C)C(=O)O)C(C)(C)C5CC[C@@]4(C)[C@]3(C)CC[C@@]2(NC(=O)[C@@H]2CCCN2C(=O)OC(C)(C)C)CC1=O	RT activity		MT-2	30% human serum	IIIB	EC50	<0.199 µM
Nc1ncnc2c1ncn2COCCOP(=O)([O-])O[C@@H]1[C@H](O)[C@@H](COP(=O)([O-])O[C@@H]2[C@H](O)[C@@H](COP(=O)([O-])O[C@@H]3[C@H](O)[C@@H](CO)O[C@H]3n3cnc4c(NCc5ccccc5)ncnc43)O[C@H]2n2cnc3c(N)ncnc32)O[C@H]1n1cnc2c(N)ncnc21	p24		SupT1 + Sup-T1			EC50	<100 µM
CNc1nc2ccc(S(=O)(=O)N(CC(C)C)C[C@@H](O)[C@H](Cc3ccccc3)NC(=O)COc3c(C)cc(N)cc3C)cc2s1	cytopathic effect / MTT		MT-4		LAI	EC50	0.003 µM
Nc1nc2c(ncn2[C@H]2C=C[C@@H](CO)C2)c(=O)[nH]1			MT-2			EC50	0.4 µM
CC(C)C1=C2C3CCC4[C@@]5(C)CC[C@H](OC(=O)CC(C)(C)C(=O)O)C(C)(C)C5CC[C@@]4(C)[C@]3(C)CC[C@@]2(NC(=O)NC2CCCCC2)CC1=O	RT activity		MT-2	30% human serum	IIIB	EC50	<0.199 µM
CCOc1ccccc1N1CCN(c2ccc3c(=O)c(C(=O)O)cn(-c4ccc(Cn5cncn5)cc4)c3c2)CC1	syncytia		PBL			EC50	0.25 µM
CCCCCOc1nc(N)nc2c1ncn2[C@H]1C=C[C@@H](CO)C1	cytopathic effect / XTT		MT-2		IIIB	EC50	7.03 µM
CC(C)CCC[C@@H](C)[C@H]1CC[C@H]2[C@@H]3CC[C@H]4C[C@@H](CCC=C(c5cc(Cl)c(O)c(C(=O)O)c5)c5cc(Cl)c(O)c(C(=O)O)c5)CC[C@]4(C)[C@H]3CC[C@]12C	cytopathic effect / XTT		CEM		IIIB	EC50	7 µM
Nc1nc2c(ncn2[C@H]2C=C[C@@H](CO)C2)c(=O)[nH]1	cytopathic effect / XTT		MT-2		IIIB	EC50	0.15 µg/mL
CSc1ccccc1N1CCN(c2ccc3c(=O)c(C(=O)O)cn(-c4ccc(Cn5cncn5)cc4)c3c2)CC1	syncytia		PBL			EC50	0.09 µM
Cc1ccc(C)c(CS(=O)(=O)c2ccccn2)c1	syncytia	RT-E103K	CEM		IIIB	EC50	>20 µg/mL
CC(C)C1=C2[C@H]3CC[C@@H]4[C@@]5(C)CC[C@H](OC(=O)CC(C)(C)C(=O)O)C(C)(C)[C@@H]5CC[C@@]4(C)[C@]3(C)CC[C@@]2(NC(=O)NC[C@@H]2CCCN2C(=O)OC(C)(C)C)CC1=O	RT activity		MT-2	30% human serum	IIIB	EC50	<0.199 µM
Nc1nc2c(ncn2[C@H]2C=C[C@@H](CO)C2)c(=O)[nH]1	cytopathic effect / XTT		MT-2C + MT-2		IIIB	EC50	0.32 µg/mL
CC(C)[C@H](C)CC[C@](C)(O)[C@H]1C(=O)C[C@H]2[C@@H]3C(=O)C=C4C[C@@H](O)CC[C@]4(C)[C@H]3CC[C@@]21C	MTT	K103N RI-resistant	MT-4		NL4-3	EC50	0.08663 µM
CC(=O)O[C@H]1[C@H](n2cc(C)c(=O)[nH]c2=O)O[C@H](COC(=O)c2ccccc2)C12OS(=O)(=O)C=C2N	p24		MT-4		IIIB	EC50	>100 µg/mL
Nc1ncnc2c1ncn2[C@@H]1O[C@H](COP(=O)(O)O[C@@H]2[C@H](O)[C@@H](COP(=O)(O)O[C@@H]3[C@H](O)[C@@H](CO)O[C@H]3n3cnc4c(N)ncnc43)O[C@H]2n2cnc3c(N)ncnc32)[C@@H](O)[C@H]1O	syncytia		SupT1 + Sup-T1			EC50	<300 µM
CC(C)(C)[Si](C)(C)OC[C@H]1O[C@@H](n2ccc(=O)[nH]c2=O)[C@H](O[Si](C)(C)C(C)(C)C)C12OS(=O)(=O)C=C2N	p24		MT-4		IIIB	EC50	>1.6 µg/mL
Nc1nc(Cl)c2ncn([C@H]3C=C[C@@H](CO)C3)c2n1	cytopathic effect / XTT		MT-2		IIIB	EC50	0.41 µg/mL
CCCC(C(=O)O)c1c(-c2ccccc2)c2cc(Cl)ccc2n(CCC)c1=O	MTT		MT-4			EC50	10.8 µM
Cc1ccc(C)c(C(Cl)S(=O)(=O)c2cc(C)cc[n+]2[O-])c1	syncytia		MT-2		IIIB	EC50	0.64 µg/mL
c1ccc(CNCc2ccc(CN3CCCNCCNCCCNCC3)cc2)nc1					HE	EC50	0.001–0.01 µg/mL
C[C@H](NC(=O)[C@@H]1CCCN1C(=O)[C@@H](NC(=O)[C@@H](N)[C@@H](C)O)[C@@H](C)O)C(=O)O	p24		PBMC (PHA stimulated) + PBMC	7 d	JR-CSF	EC50	>0.1 µM
Cc1cn([C@H]2C=C[C@@H](CO)O2)c(=O)[nH]c1=O	RT activity		PBMC		IIIB	EC50	0.04 µM
COc1ccc(S(=O)(=O)N(CC(O)CN2C(=O)OC[C@@H]2Cc2ccccc2)CC2CCCC2)cc1	p24		CEM		IIIB	EC90	1 µM
CCCNc1nc(N)nc2c1ncn2[C@H]1C=C[C@@H](CO)C1	cytopathic effect / XTT		MT-2		IIIB	EC50	15.5 µM
C=CCn1c(=O)c(C)cn([C@@H]2O[C@H](CO[Si](C)(C)C(C)(C)C)C3(OS(=O)(=O)C=C3N)[C@H]2O)c1=O	p24		MT-4		IIIB	EC50	>8 µg/mL
COc1ccc(S(=O)(=O)N(CC2CCCC2)CC(F)(F)C(=O)[C@@H](Cc2ccccc2)NC(=O)O[C@H]2CCOC2)cc1	p24		CEM		IIIB	EC90	1 µM
CC(C)CN(C[C@@H](O)[C@H](Cc1ccccc1)NC(=O)O[C@H]1CO[C@H]2OCC[C@H]21)S(=O)(=O)c1ccc2nc(N)sc2c1	cytopathic effect / MTT		MT-4		LAI	EC50	0.007 µM
Cc1ccc(C)c(C(C)S(=O)(=O)c2ccc(C)c[n+]2[O-])c1	syncytia	RT-L100I	CEM		IIIB	EC50	50 µg/mL
C[C@H](NC(=O)[C@@H]1CCCN1C(=O)[C@@H](NC(=O)[C@@H](NC(=O)[C@H](CC(=O)O)NC(=O)[C@H](CO)NC(=O)[C@@H](N)CO)[C@@H](C)O)[C@@H](C)O)C(=O)O	p24		PBMC (PHA stimulated) + PBMC	7 d	JR-CSF	EC50	>0.1 µM
COc1ccc(S(=O)(=O)N(CC(C)C)C[C@@H](O)CCN(CC2CCCC2)S(=O)(=O)Cc2nc[nH]c2C)cc1	p24		CEM		IIIB	EC90	1 µM
CCc1ccccc1N1CCN(c2ccc3c(=O)c(C(=O)O)cn(-c4ccc(Cn5cncn5)cc4)c3c2)CC1	syncytia		PBL			EC50	0.08 µM
CC(=O)NS(=O)(=O)c1ccc(-c2c3nc(c(-c4ccc(S(=O)(=O)NC(C)=O)cc4)c4ccc([nH]4)c(-c4ccc(S(=O)(=O)NC(C)=O)cc4)c4nc(c(-c5ccc(S(=O)(=O)NC(C)=O)cc5)c5ccc2[nH]5)C=C4)C=C3)cc1	cytopathic effect / MTT		MT-4		IIIB	EC50	>35 µg/mL
COc1ccc(S(=O)(=O)N(Cc2ccccc2)CC(F)(F)C(=O)[C@@H](Cc2ccccc2)NC(=O)O[C@H]2CCOC2)cc1	p24		CEM		IIIB	EC90	1 µM
CNc1nc2ccc(S(=O)(=O)N(CC(C)C)C[C@@H](O)[C@H](Cc3ccccc3)NC(=O)O[C@H]3CCOC3)cc2s1	cytopathic effect / MTT	PR-L10F M46I M71V I84V	MT-4		F	EC50	0.794 µM
Nc1ncnc2c1ncn2COCCOP(=O)([O-])O[C@@H]1C[C@@H](COP(=O)([O-])O[C@@H]2C[C@@H](COP(=O)([O-])O[C@@H]3C[C@@H](CO)O[C@H]3n3cnc4c(N)[n+](Cc5ccccc5)cnc43)O[C@H]2n2cnc3c(N)ncnc32)O[C@H]1n1cnc2c(N)ncnc21	RT activity		SupT1 + Sup-T1			EC50	<100 µM
CNc1nc2ccc(S(=O)(=O)N(CC(C)C)C[C@@H](O)[C@H](Cc3ccccc3)NC(=O)O[C@H]3CO[C@H]4OCC[C@H]43)cc2s1	cytopathic effect / MTT	PR-L10F M46I M71V I84V	MT-4		F	EC50	0.0019 µM
O=C(O)c1ccc(-c2c3nc(c(-c4ccc(C(=O)O)cc4)c4ccc([nH]4)c(-c4ccc(C(=O)O)cc4)c4nc(c(-c5ccc(C(=O)O)cc5)c5ccc2[nH]5)C=C4)C=C3)cc1	syncytia		HuT-78 + HUT 78		IIIB	EC50	10 µg/mL
O=C(CNC(=O)COc1ccccc1)NCc1ccc(C(=O)N2CCCCC2)cc1	RT activity		PBMC		92BR030	EC50	20.3 µM
COP(=O)(c1cc(C)cc(CCC#N)c1)c1c(C(N)=O)[nH]c2ccc(Cl)cc12			MT-2		BH10	EC50	0.0011 µM
CC(C)=CCOc1cc(NC(=S)c2ccoc2C)ccc1Cl	syncytia	RT-Y181C	CEM		IIIB	EC50	0.06 µg/mL
CCN(CC)C(=S)S	p24		Macrophage + Monocytes/macrophages		ADA	EC50	>100 µM
COc1ccc(C)cc1CS(=O)(=O)c1cccc[n+]1[O-]	syncytia		CEM		RF	EC50	10 µg/mL
CCNc1nc(N)nc2c1ncn2[C@H]1C=C[C@@H](CO)C1	cytopathic effect / XTT		MT-2		IIIB	EC50	11.8 µM
O=C(Nc1nc2ccc(C(F)(F)F)cc2s1)c1cnc(C(F)(F)F)s1	flow cytometry		PBMC		BaL	EC50	0.248 µM
Cc1nc(C(=O)N[C@@]23CC[C@]4(C)C(CCC5[C@@]6(C)CC[C@H](OC(=O)CC(C)(C)C(=O)O)C(C)(C)C6CC[C@]54C)C2=C(C(C)C)C(=O)C3)co1	RT activity		MT-2	30% human serum	IIIB	EC50	<0.199 µM
Cc1ccc(C)c(CSc2c(Cl)ccc[n+]2[O-])c1	syncytia		CEM		IIIB	EC50	0.05 µg/mL
CC(C)C1=C2[C@H]3CC[C@@H]4[C@@]5(C)CC[C@H](OC(=O)CC(C)(C)C(=O)O)C(C)(C)[C@@H]5CC[C@@]4(C)[C@]3(C)CC[C@@]2(NC(=O)NC2CCN(C(=O)OC(C)(C)C)CC2)CC1=O	RT activity		MT-2	30% human serum	IIIB	EC50	<0.199 µM
Cc1ccc(C)c(CS(=O)(=O)c2cccc[n+]2[O-])c1	syncytia		CEM		IIIB	EC50	5.3 µg/mL
O=C(c1ccccc1)N(CCc1ccccc1)C[C@H](O)CN(CC1CCCC1)S(=O)(=O)C1CCCC1	p24		CEM		IIIB	EC90	1 µM
COc1cccc(N2CCN(c3ccc4c(=O)c(C(=O)O)cn(-c5ccc(Cn6cncn6)cc5)c4c3)CC2)c1	syncytia		PBL			EC50	0.7 µM
O=C(O)c1cc(C(c2ccc(O)c(C(=O)O)c2)c2ccc(O)c(C(=O)O)c2)ccc1O	cytopathic effect / XTT		CEM		IIIB	EC50	77 µM
COc1ccc(C(Nc2ncnc3c2ncn3[C@@H]2O[C@H](CO[Si](C)(C)C(C)(C)C)C3(OS(=O)(=O)C=C3N)[C@H]2O[Si](C)(C)C(C)(C)C)(c2ccccc2)c2ccccc2)cc1	p24		MT-4		IIIB	EC50	>100 µg/mL

A second listing of 8 rows from above:

compound	method	changes	cell line	setting	strain	measure	result
COc1ccc(S(=O)(=O)N(CC(O)CN2C(=O)OC[C@@H]2Cc2ccccc2)CC2CCCC2)cc1	p24		CEM		IIIB	EC90	1 µM
CC(C)[C@H](C)CC[C@](C)(O)[C@H]1C(=O)C[C@H]2[C@@H]3C(=O)C=C4C[C@@H](O)CC[C@]4(C)[C@H]3CC[C@@]21C	MTT	K103N RI-resistant	MT-4		NL4-3	EC50	0.08663 µM
COc1ccc(C)cc1CS(=O)(=O)c1cccc[n+]1[O-]	syncytia		CEM		RF	EC50	10 µg/mL
C=CCn1c(=O)c(C)cn([C@@H]2O[C@H](CO[Si](C)(C)C(C)(C)C)C3(OS(=O)(=O)C=C3N)[C@H]2O)c1=O	p24		MT-4		IIIB	EC50	>8 µg/mL
CC(C)=CCOc1cc(NC(=S)c2ccoc2C)ccc1Cl	syncytia	RT-Y181C	CEM		IIIB	EC50	0.06 µg/mL
Cc1cn([C@H]2C=C[C@@H](CO)O2)c(=O)[nH]c1=O	RT activity		PBMC		IIIB	EC50	0.04 µM
CNc1nc2ccc(S(=O)(=O)N(CC(C)C)C[C@@H](O)[C@H](Cc3ccccc3)NC(=O)O[C@H]3CO[C@H]4OCC[C@H]43)cc2s1	cytopathic effect / MTT	PR-L10F M46I M71V I84V	MT-4		F	EC50	0.0019 µM
O=C(O)c1cc(C(c2ccc(O)c(C(=O)O)c2)c2ccc(O)c(C(=O)O)c2)ccc1O	cytopathic effect / XTT		CEM		IIIB	EC50	77 µM

An empty or dashed field is not shown. Two numbers with a dash give a range or band. Rows are shuffled and stem from different studies.